# Measurements reported in PubChem BioAssay AID485350 (ICCB-Longwood Screening Facility, Harvard Medical School, 2010).
# The entries are a selection whose mix differs from that of the whole data set. Activity calls are given as the source filed them. Cut-off read from the data, not from the text of the source: active = inhibition above about 25% (passing the limit was not always enough); inactive = the rest.
# Test system: BasE (2,3-dihydroxybenzoate-AMP ligase), Acinetobacter baumannii ATCC 17978
# Assay: inhibitors of A. baumannii BasE – biochemical, Acinetobacter baumannii ATCC 17978, fluorescence polarization, primary screen (AID 485350);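 note: 0% = negative plate control signal and 100% = positive plate control signal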
# Conditions: purified BasE, fluorescence polarization binding displacement; hits give high values; concentration not given here
row,SMILES,inhibition
1,CCN1CCC(Nc2ccc(F)cc2)CC1,inactive: -3.38%
2,CN(C)c1ccc(C(=O)NCC2(N3CCCCC3)CCCCC2)cc1,inactive: -0.84%
3,CCOc1ncccc1C(=O)NCC1(N2CCCCC2)CCCCC1,inactive: 1.28%
4,O=C(NCC1(N2CCCCC2)CCCCC1)c1n[nH]c2ccccc12,inactive: -3.94%
5,CCOc1ncccc1C(=O)NCC1(N(C)C)CCCCC1,inactive: -1.98%
6,CN1CCC(Nc2ccc(F)cc2)CC1,inactive: 0.76%
7,O=C1CCN(CCc2ccccc2)CC1,inactive: 0.81%
8,CCCN1CCC(Nc2cc(OC)cc(OC)c2)CC1,inactive: 0.2%
9,Cc1c(C(=O)NCC2(N3CCOCC3)CCCCC2)oc2c(Cl)cccc12,inactive: -1.32%
10,O=C(NCC1(N2CCOCC2)CCCCC1)c1cc2ccccc2cc1O,inactive: 1.57%
11,Cn1nc(C(=O)NCC2(N3CCCCC3)CCCCC2)c2ccccc2c1=O,inactive: -0.7%
12,NC(=O)C1(Nc2ccc(F)cc2)CCNCC1,inactive: 2.85%
13,Cc1ccc(C(=O)NCC2(N(C)C)CCCCC2)o1,inactive: -0.08%
14,c1ccc(CN2CCC(Nc3ccc4c(c3)OCO4)CC2)cc1,inactive: 3.56%
15,N#CC1(Nc2ccccc2)CCN(Cc2ccccc2)CC1,inactive: -1.21%
16,Cc1cnc(C(=O)NCC2(N3CCCCC3)CCCCC2)cn1,inactive: -1.29%
17,COc1ccc(C(=O)NCC2(N3CCCCC3)CCCCC2)cc1,inactive: -2.46%
18,CCCN1CCC(Nc2ccc(OC)c(OC)c2)CC1,inactive: 0.2%
19,CCOC(=O)N1CCC(Nc2cccc(C)c2)CC1,inactive: 0.24%
20,O=C1CCN(Cc2ccccc2)CC1,inactive: -1.66%
21,O=C(NCC1(N2CCOCC2)CCCCC1)c1ccc2nc[nH]c2c1,inactive: -1.01%
22,CCOC(=O)N1CCC(Nc2ccc(F)cc2)CC1,inactive: -0.25%
